Anti-infective test results gathered from many reports (values: NIAID ChemDB through PubChem).

Common to all: cytotoxicity tests; read-out: CC50

Blank or dashed fields: not listed here. Conditions beyond the fields shown may differ between rows. CCn is the concentration with n% toxicity to the cells.

structure | cell line | read by | result
CCOC(=O)CCCCCOc1cccc(CN(C(=O)c2ccc(-c3cccc(OC(F)(F)F)c3)cc2)C(C)C)c1 | BJ | - | >20 µM
CC[C@@H]1/C=C(\C)C[C@H](C)C[C@H](OC)[C@H]2O[C@@](O)(C(=O)C(=O)N3CCCC[C@H]3C(=O)O[C@H](/C(C)=C/[C@H]3CC[C@H](O)[C@H](OC)C3)[C@H](C)[C@@H](O)CC1=O)[C@H](C)C[C@@H]2OC | COS 1 | - | 54 µg/mL
CC(C)C[C@@H]1NC(=O)[C@H](Cc2c[nH]c3ccccc23)NC(=O)[C@@H](C(C)(C)C)NC(=O)[C@H](CCCCN)NC(=O)[C@H](C(C)C)NC(=O)[C@@H](CC(C)C)NC1=O | Colorectal carcinoma | MTT | >30 µM
CCOC(=O)C1=C(CN2CC(F)(F)[C@@H]3[C@H]2CON3C[C@H](OCC)C(C)(C)C(=O)O)NC(c2nccs2)=N[C@H]1c1cccc(F)c1C | HepG2.2.15 | WST / absorbance | 50 µM
CCCN([C@H](CO)CCCC(C)NC(=O)[C@@H](NC(=O)OC)C(c1ccccc1)c1ccccc1)S(=O)(=O)c1ccc(CO)cc1 | T lymphoid cells | microscopy | >10 µM
CN(C)CC1c2nc(C(=O)NCc3ccc(F)cc3)c(O)c(=O)n2CCN1S(C)(=O)=O | MT-4 | microscopy | >1 µM
O=C1NC[C@H](c2ccccc2)Nc2c1c(=O)n(O)c1ncccc21 | HeLa | - | <100 µM
CC(C)C[C@@H]1NC(=O)[C@H](Cc2c[nH]c3ccccc23)NC(=O)CNC(=O)[C@H](CCCCN)NC(=O)[C@H](C(C)C)NC(=O)[C@@H](CC(C)C)NC1=O | Lung carcinoma cells | MTT | 28.5 µM
NC(=O)c1[nH]c2c(c1N)C1=C(CCC/C1=C\c1ccncc1)C(c1ccncc1)S2 | MGC-803 | MTT | >50 µM
C[C@@H](Nc1cc(=O)n(O)c2ncccc12)c1ccccc1 | HeLa | - | 0.16 µM
COC(=O)N[C@@H](Cc1ccccc1Br)C(=O)N[C@@H](C)CCC[C@@H](CO)N(C(C)C)S(=O)(=O)c1ccc(N)cc1 | T lymphoid cells | microscopy | >10 µM
S=C(NCc1ccccc1)Nc1ccc2c(c1)Cc1cc(Br)ccc1-2 | Ava5-EG(delta4AB)SEAP | MTS | >1 µM
CCOC(=O)C1=C(CN2CC(F)(F)[C@@H]3[C@H]2CON3C[C@H](O)C(C)(C)C(=O)O)NC(c2nccs2)=N[C@H]1c1ccc(F)c(F)c1C | HepG2.2.15 | WST / absorbance | >50 µM
COC(=O)N[C@H](C(=O)N[C@@H](C)CCC[C@@H](CO)N(C)S(=O)(=O)c1ccc(CO)cc1)C(c1ccccc1)c1ccccc1 | T lymphoid cells | microscopy | >10 µM
O=C1Sc2nc3c(c(=S)n2C/C1=C/c1ccccc1)C1=C(CCC/C1=C\c1ccncc1)C(c1ccncc1)S3 | MGC-803 | MTT | 26.1 µM
C#C[C@@H](CCC[C@@H](CO)N(CCC(C)C)S(=O)(=O)c1ccc(CO)cc1)NC(=O)[C@@H](NC(=O)OC)C(c1ccccc1)c1ccccc1 | T lymphoid cells | microscopy | >10 µM
Cc1cc(Cl)c(OCCCCCOc2cccc(NC(N)=S)c2)c(Cl)c1 | Ava5-EG(delta4AB)SEAP | MTS | >1 µM
CCOC(=O)[C@@]1(C)CC[C@]2(C)CC[C@]3(C)C(=CC(=O)[C@@H]4[C@@]5(C)CC/C(=N\OCc6cc(F)cc(F)c6)C(C)(C)[C@@H]5CC[C@]43C)[C@@H]2C1 | K562 | MTT | 19.65 µM
COc1cnc(-c2nnc(C)o2)c2[nH]cc(C(=O)C(=O)N3CCN(C(=O)c4ccccc4)CC3)c12 | HeLa | trypan blue | >100 µM
CCOC(=O)[C@@]1(C)CC[C@]2(C)CC[C@]3(C)C(=CC(=O)[C@@H]4[C@@]5(C)CC/C(=N\OCc6ccc7ccccc7c6)C(C)(C)[C@@H]5CC[C@]43C)[C@@H]2C1 | CT26 | MTT | 71.43 µM
Cc1ccc(/C=c2\c(=O)sc3nc4c(c(=S)n23)C2=C(CCC/C2=C\c2ccncc2)C(c2ccncc2)S4)cc1 | MGC-803 | MTT | 38.4 µM
COC(=O)C1=C(CN2CC(F)(F)[C@@H]3[C@H]2CON3C[C@@H](F)C(C)(C)C(=O)O)NC(c2nccs2)=N[C@H]1c1ccc(F)cc1Cl | HepG2.2.15 | WST / absorbance | 50 µM
COc1ncc(OC)c2c(C(=O)C(=O)N3CCN(C(=O)c4ccccc4)C[C@H]3C)c[nH]c12 | HeLa | trypan blue | >100 µM
O=C(NCc1ccc(F)cc1)c1nc2n(c(=O)c1O)CCN(Cc1cocn1)C21CC1 | MT-4 | microscopy | >1 µM
Cc1ncn(-c2cc(Cl)nc3c(C(=O)C(=O)N4CCN(C(=O)c5ccccc5)[C@H](C)C4)c[nH]c23)n1 | HeLa | trypan blue | >100 µM
CC(C)C[C@@H]1NC(=O)[C@H](Cc2c[nH]c3ccccc23)NC(=O)[C@@H](CC(C)C)NC(=O)[C@H](CCCCN)NC(=O)[C@H](C(C)C)NC(=O)[C@@H](CC(C)C)NC1=O | Colorectal carcinoma | MTT | >30 µM
Clc1nnnc2c1C1=C(CCC/C1=C\c1ccncc1)C(c1ccncc1)S2 | MGC-803 | MTT | 12.4 µM
CCOC(=O)[C@@]1(C)CC[C@]2(C)CC[C@]3(C)C(=CC(=O)[C@@H]4[C@@]5(C)CC/C(=N\OCc6ccc(Cl)cc6)C(C)(C)[C@@H]5CC[C@]43C)[C@@H]2C1 | K562 | MTT | 36.85 µM
CCN(CC)c1ccc(OCCCCCOc2cccc(NC(N)=S)c2)cc1 | Ava5-EG(delta4AB)SEAP | MTS | >1 µM
COC(=O)C1=C(CN2CC(F)(F)[C@H]3[C@@H]2CCN3C[C@@H](F)C(C)(C)C(=O)O)NC(c2nc(C)cs2)=N[C@H]1c1cccc(F)c1C | HepG2.2.15 | WST / absorbance | 33 µM
CCOC(=O)CCCCCOc1cccc(CN(C(=O)c2ccc(-c3ccc4cc[nH]c4c3)cc2)C(C)C)c1 | BJ | - | >20 µM
S=C(Nc1ccc2c(c1)Cc1cc(Br)ccc1-2)Nc1cccc2ccccc12 | Ava5-EG(delta4AB)SEAP | MTS | >1 µM
O=c1cc(NCc2cccc(N3CCOCC3)n2)c2cccnc2n1O | HeLa | - | 0.11 µM
O=C(NCc1ccc(F)cc1)c1nc2n(c(=O)c1O)CCN(Cc1ccccc1)C2 | MT-4 | microscopy | >1 µM
CCOC(=O)CCCCCOc1cccc(CN(C(=O)c2ccc(-c3cccc(C(C)=O)c3)cc2)C(C)C)c1 | RAJI | - | >20 µM
CN(C)C(=O)C(=O)N(C)C1CN(S(C)(=O)=O)CCn2c1nc(C(=O)NCc1ccc(F)cc1)c(O)c2=O | MT-4 | microscopy | >1 µM
COC(=O)N[C@H](C(=O)N[C@H](CCC[C@@H](CO)N(CCC(C)C)S(=O)(=O)c1ccc(N)c(F)c1)C1CC1)C(c1ccccc1)c1ccccc1 | T lymphoid cells | microscopy | >10 µM
COc1cnc(-n2ncc(C)n2)c2[nH]cc(C(=O)C(=O)N3CCN(C(=O)c4ccccc4)CC3)c12 | HeLa | trypan blue | >100 µM
S=C(Nc1cccc(OCCCCCc2ccccc2)c1)N1CCN(CCCc2ccccc2)C1=S | Ava5-EG(delta4AB)SEAP | MTS | >1 µM
COC(=O)N[C@H](C(=O)N[C@H](CCC[C@@H](CO)N(C)S(=O)(=O)c1ccc(CO)cc1)C1CC1)C(c1ccccc1)c1ccccc1 | T lymphoid cells | microscopy | >10 µM
COc1cnc(-c2n[nH]c(C)n2)c2[nH]cc(C(=O)C(=O)N3CCN(C(=O)c4ccccc4)CC3)c12 | HeLa | trypan blue | >100 µM
CC(C)(CCOc1ccccc1)CCOc1cccc(NC(N)=S)c1 | Ava5-EG(delta4AB)SEAP | MTS | >1 µM
COc1cnc(-c2nnnn2C)c2[nH]cc(C(=O)C(=O)N3CCN(C(=O)c4ccccc4)CC3)c12 | HeLa | trypan blue | >100 µM
CC(C)C[C@@H]1NC(=O)[C@H](Cc2c[nH]c3ccccc23)NC(=O)[C@H]2CCCN2C(=O)[C@H](CCCCN)NC(=O)[C@H](C(C)C)NC(=O)[C@@H](CC(C)C)NC1=O | Colorectal carcinoma | MTT | >30 µM
CC(c1ccc(-c2cccc(-c3cc(=O)n(O)c4ncccc34)c2)cc1)N1CCOCC1 | HeLa | - | <100 µM
CC1(C)c2nc(C(=O)NCc3ccc(F)cc3)c(O)c(=O)n2CCN1Cc1cnco1 | MT-4 | microscopy | >1 µM
CCOC(=O)[C@@]1(C)CC[C@]2(C)CC[C@]3(C)C(=CC(=O)[C@@H]4[C@@]5(C)CC/C(=N\OCc6ccc(-c7ccccc7)cc6)C(C)(C)[C@@H]5CC[C@]43C)[C@@H]2C1 | CT26 | MTT | 19.83 µM
CCOC(=O)CCCCCOc1cccc(CN(C(=O)c2ccc(-c3ccsc3)cc2)C(C)C)c1 | BJ | - | >20 µM
CC1(C)c2nc(C(=O)NCc3ccc(F)cc3)c(O)c(=O)n2CCN1Cc1cn[nH]n1 | MT-4 | microscopy | >1 µM

Again, the opening 6 rows:

structure | cell line | read by | result
CCOC(=O)CCCCCOc1cccc(CN(C(=O)c2ccc(-c3cccc(OC(F)(F)F)c3)cc2)C(C)C)c1 | BJ | - | >20 µM
CC[C@@H]1/C=C(\C)C[C@H](C)C[C@H](OC)[C@H]2O[C@@](O)(C(=O)C(=O)N3CCCC[C@H]3C(=O)O[C@H](/C(C)=C/[C@H]3CC[C@H](O)[C@H](OC)C3)[C@H](C)[C@@H](O)CC1=O)[C@H](C)C[C@@H]2OC | COS 1 | - | 54 µg/mL
CC(C)C[C@@H]1NC(=O)[C@H](Cc2c[nH]c3ccccc23)NC(=O)[C@@H](C(C)(C)C)NC(=O)[C@H](CCCCN)NC(=O)[C@H](C(C)C)NC(=O)[C@@H](CC(C)C)NC1=O | Colorectal carcinoma | MTT | >30 µM
CCOC(=O)C1=C(CN2CC(F)(F)[C@@H]3[C@H]2CON3C[C@H](OCC)C(C)(C)C(=O)O)NC(c2nccs2)=N[C@H]1c1cccc(F)c1C | HepG2.2.15 | WST / absorbance | 50 µM
CCCN([C@H](CO)CCCC(C)NC(=O)[C@@H](NC(=O)OC)C(c1ccccc1)c1ccccc1)S(=O)(=O)c1ccc(CO)cc1 | T lymphoid cells | microscopy | >10 µM
CN(C)CC1c2nc(C(=O)NCc3ccc(F)cc3)c(O)c(=O)n2CCN1S(C)(=O)=O | MT-4 | microscopy | >1 µM